A value given as a limit tells only on which side of the number the result lay.

For orientation: CC50 means the concentration that lowers cell viability or growth by half. A lower CC50 goes with harm at low concentration.

The test system of this data set is TZM-bl and HL2/3 cells. To be noted: cytotoxicity under conditions similar to cell-cell fusion.
As for [Trp]-Trp, the 50% cytotoxic concentration (CC50) is greater than 50 µM.
The value for [Phe]-Trp was greater than 50 µM; that for [Trp]-Phe was greater than 50 µM.

These data come from publication PMC3777804 (Journal of computer-aided molecular design, 2013).
